{
  "source": "paper PMC4766503",
  "about": "“A novel peptide with potent and broad-spectrum antiviral activities against multiple respiratory viruses” (Scientific Reports, 2016)",
  "key": {"H1N1 virus": {"system": "H1N1 virus", "conditions": "1 h"}, "MDCK cells": {"system": "MDCK cells", "conditions": "24 h"}},
  "data": [
    {"smiles": "CC[C@H](C)[C@H](N)C(=O)N[C@H](C(=O)N[C@@H](CC(N)=O)C(=O)N[C@@H](CC(N)=O)C(=O)N1CCC[C@H]1C(=O)N[C@H](C(=O)N[C@H](C(=O)N[C@H]1CSSC[C@@H]2NC(=O)[C@H](CCCNC(=N)N)NC(=O)[C@H](C(C)C)NC(=O)[C@H](CCCCN)NC(=O)[C@H](Cc3ccccc3)NC(=O)[C@H](Cc3c[nH]cn3)NC(=O)CNC(=O)[C@@H]3CSSC[C@H](NC(=O)[C@H]([C@@H](C)CC)NC(=O)[C@H](C)NC(=O)CNC(=O)[C@H](CC(N)=O)NC(=O)[C@H]([C@@H](C)O)NC(=O)[C@H](CCSC)NC1=O)C(=O)N[C@@H](Cc1c[nH]c4ccccc14)C(=O)NCC(=O)N1CCC[C@H]1C(=O)N[C@@H](CSSC[C@@H](C(=O)N[C@@H](CCCCN)C(=O)N[C@H](C(=O)N[C@@H](CCCNC(=N)N)C(=O)O)[C@@H](C)CC)NC2=O)C(=O)N1CCC[C@H]1C(=O)N[C@@H]([C@@H](C)O)C(=O)N[C@@H](C)C(=O)N[C@@H](Cc1ccccc1)C(=O)N[C@@H](CCCNC(=N)N)C(=O)N[C@@H](CCC(N)=O)C(=O)N[C@@H]([C@@H](C)CC)C(=O)NCC(=O)N[C@@H](CC(N)=O)C(=O)N3)[C@@H](C)O)[C@@H](C)CC)[C@@H](C)CC", "note": "[smBD4, reference compound]", "values": [
      {"measurement": "50% inhibitory concentration (IC50) against H1N1", "setting": "H1N1 virus", "result": 3.2, "unit": "µg/mL"},
      {"measurement": "50% toxic concentration (TC50)", "setting": "MDCK cells", "result": 280, "unit": "µg/mL"}
    ]}
  ]
}
